Pooled drug test results. Numbers come from NIAID ChemDB, via PubChem.

All rows: toxicity to cultured cells; read-out: CC50

CCn is the concentration with n% toxicity to the cells. Rows are shuffled and stem from different studies.

O=C(NCCc1cccc(-n2ccnc2)n1)Nc1cccc(F)c1 ; cells: PBMC ; result: 50 µM
CCOC(=O)C1=C(CN2CC(F)(F)[C@@H]3[C@H]2CON3CC[C@@](C)(O)C(=O)O)NC(c2nccs2)=N[C@H]1c1ccc(F)c(F)c1C ; cells: HepG2.2.15 ; read by: WST / absorbance ; result: >100 µM
NCc1ccccc1CNc1cc(=O)n(O)c2ncccc12 ; cells: HeLa ; result: 0.14 µM
COc1cnc(-c2cccn2C)c2[nH]cc(C(=O)C(=O)N3CCN(C(=O)c4ccccc4)CC3)c12 ; cells: HeLa ; read by: trypan blue ; result: ≤100 µM
O=c1cc(NCc2ccccn2)c2cccnc2n1O ; cells: HeLa ; result: 0.06 µM
COC(=O)C1=C(CN2CC(F)(F)[C@H]3[C@@H]2CCN3C[C@@H](F)C(C)(C)C(=O)O)NC(c2nc(C)cs2)=N[C@H]1c1cccc(F)c1C ; cells: HepG2.2.15 ; read by: WST / absorbance ; result: 33 µM
C=CCCCC(=O)NCC(c1ccc2c(c1)OCO2)C1OCCO1 ; cells: HEK 293 ; result: <7.5 µM
NC(=S)Nc1cccc(OCCCCCOc2cccc3ccccc23)c1 ; cells: Ava5-EG(delta4AB)SEAP ; read by: MTS ; result: >1 µM
O=C(CCc1ccc2c(n1)NCCC2)NCCc1ccc(Cl)c(Cl)c1 ; cells: PBMC ; result: 23 µM
CCOC(=O)CCCCCOc1cccc(CN(C(=O)c2ccc(-c3ccsc3)cc2)C(C)C)c1 ; cells: RAJI ; result: >20 µM
O=C(NCCc1ccc2c(n1)NCCC2)Oc1ccc(Cl)cc1 ; cells: PBMC ; result: 11 µM
CCOC(=O)CCCCCOc1cccc(CN(C(=O)c2ccc(-c3ccoc3)cc2)C(C)C)c1 ; cells: HEK 293 ; result: >20 µM
Cc1cc(C)n(-c2cccc(-c3ccnc4c3c(O)cc(=O)n4O)c2)n1 ; cells: HeLa ; result: <100 µM
NC(=O)c1ncc(Cl)c2c(C(=O)C(=O)N3CCN(C(=O)c4ccccc4)CC3)c[nH]c12 ; cells: HeLa ; read by: trypan blue ; result: >100 µM
CCOC(=O)C1=C(CN2CC(F)(F)[C@@H]3[C@H]2CON3C[C@@H](F)CCC(C)(C)C(=O)O)NC(c2nccs2)=N[C@H]1c1cccc(F)c1C ; cells: HepG2.2.15 ; read by: WST / absorbance ; result: 44 µM
C[C@@H]1CN(C(=O)c2ccccc2)CCN1C(=O)C(=O)c1c[nH]c2c(-c3nccs3)ncc(F)c12 ; cells: HeLa ; read by: trypan blue ; result: ≤100 µM
CCOC(=O)c1c(O)c2cc(-c3ccccc3OC)cnc2n(O)c1=O ; cells: HeLa ; result: <100 µM
CCn1c2ccccc2c2cc(NC(N)=S)ccc21 ; cells: Ava5-EG(delta4AB)SEAP ; read by: MTS ; result: >1 µM
CCOC(=O)C1=C(CN2CC(F)(F)[C@@H]3[C@H]2CON3C[C@H](O)C(C)(C)C(=O)O)NC(c2nccs2)=N[C@H]1c1cccc(F)c1F ; cells: HepG2.2.15 ; read by: WST / absorbance ; result: >100 µM
O=C(Cc1cccc(C(F)(F)F)c1)NCCc1ccc2c(n1)NCCC2 ; cells: PBMC ; result: 5.2 µM
CCCCCNC(=S)Nc1cccc(OCCCCCc2ccccc2)c1 ; cells: Ava5-EG(delta4AB)SEAP ; read by: MTS ; result: >1 µM
COc1ncccc1NC(=O)NCC1CCc2cccnc2N1 ; cells: PBMC ; result: 50 µM
CCCCCCCNC(=S)Nc1ccc2c(c1)Cc1cc(Br)ccc1-2 ; cells: Ava5-EG(delta4AB)SEAP ; read by: MTS ; result: >1 µM
CCOC(=O)C1=C(CN2CC(F)(F)[C@@H]3[C@H]2CON3[C@H](C)[C@H](O)C(C)(C)C(=O)O)NC(c2nccs2)=N[C@H]1c1cccc(F)c1C ; cells: HepG2.2.15 ; read by: WST / absorbance ; result: 8.1 µM
O=C(NCCc1ccc2c(n1)NCCC2)Nc1ccc(F)cc1F ; cells: PBMC ; result: 50 µM
CCOC(=O)C1=C(CN2CC(F)(F)[C@@H]3[C@H]2CON3C[C@H](O)C(C)(C)C(=O)O)NC(c2nccs2)=N[C@H]1c1cccc(F)c1C ; cells: HepG2.2.15 ; read by: WST / absorbance ; result: 100 µM
O=C(NCCc1ccc2c(n1)NCCC2)Nc1ccccc1 ; cells: PBMC ; result: 50 µM
COc1cccc(CNc2cc(=O)n(O)c3ncccc23)c1 ; cells: HeLa ; result: <100 µM
NC(=S)Nc1cccc(OCCCCCOc2cccc(Cc3ccccc3)c2)c1 ; cells: Ava5-EG(delta4AB)SEAP ; read by: MTS ; result: >1 µM
CCOC(=O)CCCCCOc1cccc(CN(C(=O)c2ccc(-c3cn(S(=O)(=O)c4ccccc4)c4ccccc34)cc2)C(C)C)c1 ; cells: HEK 293 ; result: >20 µM
NCc1cccc(-c2cccc(Cc3ccnc4c3c(O)cc(=O)n4O)c2)c1 ; cells: HeLa ; result: <100 µM
CCOC(=O)CCCCCOc1cccc(CN(C(=O)c2ccc(-c3cccc(Cl)c3)cc2)C(C)C)c1 ; cells: BJ ; result: <13.5 µM
O=C(NCCc1ccc2c(n1)NCCC2)NC1Cc2ccccc2C1 ; cells: PBMC ; result: 5.1 µM
CCOC(=O)c1c(O)c2cc(C(=O)NCc3ccccc3OC)cnc2n(O)c1=O ; cells: HeLa ; result: <100 µM
COc1cnc(-n2cc(C)nn2)c2[nH]cc(C(=O)C(=O)N3CCN(C(=O)c4ccccc4)CC3)c12 ; cells: HeLa ; read by: trypan blue ; result: >100 µM
COc1cc(OC)c(NC(=O)NCC2CCc3ccccc3N2)cc1Cl ; cells: PBMC ; result: 50 µM
O=c1cc(NCC(c2ccccc2)N2CCOCC2)c2cccnc2n1O ; cells: HeLa ; result: <100 µM
S=C(Nc1cccc(OCCCCCOc2ccc(-c3ccccc3)cc2)c1)N1CCOCC1 ; cells: Ava5-EG(delta4AB)SEAP ; read by: MTS ; result: >1 µM
CCOC(=O)CCCCCOc1cccc(CN(C(=O)c2ccc(-c3cccc(-c4ccccc4)c3)cc2)C(C)C)c1 ; cells: HEK 293 ; result: >20 µM

Repeating the final 3 entries:

{"SMILES": "O=c1cc(NCC(c2ccccc2)N2CCOCC2)c2cccnc2n1O", "cells": "HeLa", "result": "<100 µM"}
{"SMILES": "S=C(Nc1cccc(OCCCCCOc2ccc(-c3ccccc3)cc2)c1)N1CCOCC1", "cells": "Ava5-EG(delta4AB)SEAP", "read by": "MTS", "result": ">1 µM"}
{"SMILES": "CCOC(=O)CCCCCOc1cccc(CN(C(=O)c2ccc(-c3cccc(-c4ccccc4)c3)cc2)C(C)C)c1", "cells": "HEK 293", "result": ">20 µM"}